The results in this text go back to PubChem BioAssay AID687007 (The Scripps Research Institute Molecular Screening Center, 2013).

The entries are a selection whose mix differs from that of the whole data set. Active and inactive are the calls of the source. Rule as the data show it: active = inhibition above about 13%; inactive = the rest.

This test is described as follows: Gal4-VP16 luciferase reporter inhibitors, counter-screen for COUP-TFII antagonist project, cell-based, luminescence, HEK293 (AID 687007). The following applies: at 8.5 µM, active compounds read high. For orientation: In a reporter assay the amount or activity of a reporter protein is the signal.
In the case of `O=[N+]([O-])c1cc([N+](=O)[O-])c(Nc2ccc(Cl)cc2)c([N+](=O)[O-])c1`, the inhibition (as a rule, the relative decrease from the control value, in per cent) was inactive: 2.68%.
